Pooled drug test results. Numbers come from NIAID ChemDB, via PubChem.

Shared fields: whole-cell or culture tests; organism: Mycobacterium smegmatis; endpoint: MIC

Blank or dashed fields: not listed here. a–b is a range or a potency band. Rows are shuffled and stem from different studies.

smiles | strain or isolate | method | value
CSCC[C@H](NS(=O)(=O)c1ccc(C)cc1)C(=O)N/N=C/c1ccc2c(c1)OC(F)(F)O2 | ATCC 607 | broth dilution / visual reading | >250 µg/mL
CCCCCCCCCOc1cc(-c2ccc(F)cc2)nc2ccccc12 | ATCC 607 | - | 125 µg/mL
CCCC[C@@H](CN[C@H](CN)CCCCNC)NCc1cccc2ccccc12 | mc2155 | absorbance | 12.5 µM
CCCCCCCCCCCCCCCCCCCOC(=O)NC(CCC(=O)O)(CCC(=O)O)CCC(=O)O | mc155 | - | 5 µg/mL
O=C(O)c1c2n(c3cc(N4CCN(C(c5ccccc5)c5ccc(Cl)cc5)CC4)c([N+](=O)[O-])cc3c1=O)CS2 | ATCC 14468 MC2 | agar | 5.56 µM
COc1c(N2CCN(Cc3ccc4c(c3)OCO4)CC2)c(F)cc2c(=O)c(C(=O)O)cn(C3CC3)c12 | ATCC 14468 | agar | 3.15 µM
CSCC[C@H](NS(=O)(=O)c1ccc(C)cc1)C(=O)N/N=C/c1ccco1 | ATCC 607 | broth dilution / visual reading | >515 µg/mL
O=C(O)c1c2n(c3cc(F)c(N4CCSCC4)cc3c1=O)CS2 | ATCC 14468 | agar | 70.94 µM
O=C(Nc1cccc(Cn2ccnc2)c1)c1ccc(Cl)cc1 | 103599 | - | >16 µg/mL
NCC(=O)c1ccc(Nc2ccn(CCCCN3CCC(N)CC3)c(=O)n2)nc1 | - | turbidity | 8–32 µg/mL
CN1CCN(c2cc3c(cc2F)c(=O)c(C(=O)O)c2n3CS2)CC1c1ccccc1 | ATCC 14468 MC2 | agar | 58.76 µM
COc1c(N2CCN(C(c3ccccc3)c3ccc(Cl)cc3)CC2)c(F)c([N+](=O)[O-])c2c(=O)c(C(=O)O)cn(C3CC3)c12 | ATCC 14468 | agar | 10.29 µM
CN(C)C(=O)CC(CSc1ccccc1)Nc1c(C(=O)N/N=C/c2ccc(Br)s2)cnc2cccc(C(F)(F)F)c12 | ATCC 19420 | resazurin | >100 µg/mL
CN1CCN(c2cc3c(=O)c(C(=O)O)c4n(c3cc2[N+](=O)[O-])CS4)CC1c1ccccc1 | ATCC 14468 | agar | 52.25 µM
CSCCC/C=N/NC(=O)c1cnc2cccc(C(F)(F)F)c2c1NC(CSc1ccccc1)CC(=O)N(C)C | ATCC 19420 | resazurin | >100 µg/mL
CC1(N)CCN(CCCCn2ccc(Nc3ccc(CNCCCN)cn3)nc2=O)CC1 | - | turbidity | <8 µg/mL
CCc1ccc(/C=N/NC(=O)[C@H](CCSC)NS(=O)(=O)c2ccc(C)cc2)s1 | ATCC 607 | broth dilution / visual reading | >250 µg/mL
NNC(=O)c1ccncc1 | MC^2 144 | - | 5 µg/mL
COc1ccc(/C=N/NC(=O)c2cnc3cc(F)ccc3c2NC(CSc2ccccc2)CC(=O)N(C)C)cc1O | ATCC 19420 | resazurin | >100 µg/mL
C=C1C2CCC(C(=O)O)[C@@]23CC[C@H](C3)C1(C)C | ATCC 700084 | agar diffusion | 12.5 µg/mL
CSCC[C@H](NS(=O)(=O)c1ccc(C)cc1)C(=O)N/N=C/c1ccc([N+](=O)[O-])s1 | ATCC 607 | broth dilution / visual reading | 128.7 µg/mL
O=C(O)c1c2n(c3cc(N4CCSCC4)c(F)cc3c1=O)CS2 | ATCC 14468 MC2 | agar | 70.94 µM
O=C(O)c1c2n(c3cc(F)c(N4CCC(O)(c5ccc(Cl)cc5)CC4)cc3c1=O)CS2 | ATCC 14468 | agar | 54.24 µM
CSCC[C@H](NS(=O)(=O)c1ccc(C)cc1)C(=O)N/N=C(\C)c1ccncc1 | ATCC 607 | broth dilution / visual reading | >250 µg/mL
CSc1ccccc1/C=N/NC(=O)c1cnc2cc(F)ccc2c1NC(CSc1ccccc1)CC(=O)N(C)C | ATCC 19420 | resazurin | >100 µg/mL
CCCCCCCCCCCCCCCCCC(=O)NC(CCC(=O)O)(CCC(=O)O)CCC(=O)O | mc155 | - | 27 µg/mL
CSCC[C@H](NS(=O)(=O)c1ccc(C)cc1)C(=O)NN | ATCC 607 | broth dilution / visual reading | 262.3 µg/mL
O=C(O)c1c2n(c3cc([N+](=O)[O-])c(N4CCC(n5c(=O)[nH]c6ccc(Cl)cc65)CC4)cc3c1=O)CS2 | ATCC 14468 | agar | 11.84 µM
CCCCCCCCCCCCOc1cc(-c2ccc(F)cc2)nc2ccccc12 | ATCC 607 | - | 500 µg/mL
NC1CCN(CCCCn2ccc(Nc3ccc(COCCCNCC4CC4)cn3)nc2=O)CC1 | - | turbidity | 32–128 µg/mL
COc1c(N2CCn3cc(C(=O)O)nc3C2)c(F)c([N+](=O)[O-])c2c(=O)c(C(=O)O)cn(C3CC3)c12 | ATCC 14468 | agar | 6.42 µM
Cc1onc(-c2c(F)cccc2F)c1C(=O)N1CCN(c2cc3c(cc2F)c(=O)c(C(=O)O)c2n3CS2)CC1 | ATCC 14468 MC2 | agar | 89.85 µM
CC1CN(c2cc3c(=O)c(C(=O)O)c4n(c3cc2F)CS4)CC(C)O1 | ATCC 14468 | agar | 68.61 µM
CCCCCOc1cc(-c2ccc(F)cc2)nc2ccccc12 | ATCC 607 | - | 125 µg/mL
O=C(O)c1c2n(c3cc(F)c(N4CCC(n5c(=O)[nH]c6ccc(Cl)cc65)CC4)cc3c1=O)CS2 | ATCC 14468 | agar | 49.91 µM
CN1CCN(Cc2ccc(NC(=O)c3ccc(Cl)cc3)cc2)CC1 | 103599 | - | >16 µg/mL
CCCCCCCCCCCCCCCCC(=O)NC(C)(CCC(=O)O)CCC(=O)O | mc155 | - | 18 µg/mL
CN1CCN(c2cc3c(=O)c(C(=O)O)c4n(c3cc2F)CS4)CC1c1ccccc1 | ATCC 14468 | agar | 58.76 µM
O=C(O)c1c2n(c3cc(N4CCC5(CC4)OCCO5)c([N+](=O)[O-])cc3c1=O)CS2 | ATCC 14468 MC2 | agar | 59.61 µM
O=C(/C=C/c1ccccc1)Nc1cccc(Cn2ccnc2)c1 | 103599 | - | >16 µg/mL
CCCC[C@@H](CN[C@@H](CN)CCCCNC)NCc1cccc2ccccc12 | mc2155 | absorbance | 25 µM
CSCC[C@H](NS(=O)(=O)c1ccc(C)cc1)C(=O)N/N=C/c1cc(-c2ccccc2)cs1 | ATCC 607 | broth dilution / visual reading | >250 µg/mL
O=C(Nc1ccc(CN2CCOCC2)cc1)c1ccc(-c2ccccc2)cc1 | 103599 | - | >16 µg/mL
CCCCCCCCCCCCCCCCCCCCCOC(=O)NC(CCC(=O)O)(CCC(=O)O)CCC(=O)O | mc155 | - | 5 µg/mL
CCCCCCOc1cc(-c2ccc(F)cc2)nc2ccccc12 | ATCC 607 | - | 125 µg/mL
COc1c(N2CCN(C(c3ccccc3)c3ccc(Cl)cc3)CC2)c(F)cc2c(=O)c(C(=O)O)cn(C3CC3)c12 | ATCC 14468 | agar | 44.48 µM
NCc1ccc(Nc2ccn(CCCCN3CCC(N)CC3)c(=O)n2)nc1 | - | turbidity | 8–32 µg/mL
NNC(=O)c1ccncc1 | ATCC 14468 MC2 | agar | 45.57 µM
CCCCCCCCCCCCCCCCCCCCCOC(=O)NC(C)(CCC(=O)O)CCC(=O)O | mc155 | - | 177 µg/mL
CSCC[C@H](NS(=O)(=O)c1ccc(C)cc1)C(=O)N/N=C(\C)c1ccsc1 | ATCC 607 | broth dilution / visual reading | >250 µg/mL
CCCCCCCCCCCCCCC(=O)NC(C)(CCC(=O)O)CCC(=O)O | mc155 | - | 9 µg/mL
CCCCCCCC/C=N/NC(=O)c1cnc2cccc(C(F)(F)F)c2c1NC(CSc1ccccc1)CC(=O)N(C)C | ATCC 19420 | resazurin | 10 µg/mL
CCCCCCCCCOc1cc(-c2ccccc2F)nc2ccccc12 | ATCC 607 | - | 500 µg/mL
CCCCCCCCCCCCCCCCOC(=O)NC(C)(CCC(=O)O)CCC(=O)O | mc155 | - | 54 µg/mL

The last 4 rows once more:

smiles	strain or isolate	method	value
CCCCCCCCCCCCCCC(=O)NC(C)(CCC(=O)O)CCC(=O)O	mc155	-	9 µg/mL
CCCCCCCC/C=N/NC(=O)c1cnc2cccc(C(F)(F)F)c2c1NC(CSc1ccccc1)CC(=O)N(C)C	ATCC 19420	resazurin	10 µg/mL
CCCCCCCCCOc1cc(-c2ccccc2F)nc2ccccc12	ATCC 607	-	500 µg/mL
CCCCCCCCCCCCCCCCOC(=O)NC(C)(CCC(=O)O)CCC(=O)O	mc155	-	54 µg/mL